Assay results published in the NIST ThermoML archive (doi:10.1021/acs.jced.5b00343).

What was measured:
[1] = refractive index (Na D-line) (dimensionless); conditions: 101 kPa, Liquid, Standard Abbe refractometry
[2] = 101 kPa, Liquid; for speed of sound: Frequency=1.5 MHz, Sing-around technique in a fixed-path interferometer; for mass density: Vibrating tube method

CCCCOP(=O)(OCCCC)OCCCC [tributyl phosphate]
refractive index ([1]; 303.15 K): 1.421 ± 0.0004 | refractive index ([1]; 308.15 K): 1.419 ± 0.0004 | refractive index ([1]; 313.15 K): 1.4171 ± 0.0004 | refractive index ([1]; 318.15 K): 1.4146 ± 0.0004 | refractive index ([1]; 323.15 K): 1.4131 ± 0.0004 | speed of sound ([2]; 303.15 K): 1247.4 ± 1.5 m/s | mass density ([2]; 303.15 K): 968.39 ± 0.3 kg/m3 | speed of sound ([2]; 308.15 K): 1230.5 ± 1.5 m/s | mass density ([2]; 308.15 K): 964.11 ± 0.3 kg/m3 | speed of sound ([2]; 313.15 K): 1213.8 ± 1.5 m/s | mass density ([2]; 313.15 K): 959.82 ± 0.3 kg/m3 | speed of sound ([2]; 318.15 K): 1197.3 ± 1.5 m/s | mass density ([2]; 318.15 K): 955.54 ± 0.3 kg/m3 | speed of sound ([2]; 323.15 K): 1181.4 ± 1.5 m/s | mass density ([2]; 323.15 K): 951.26 ± 0.3 kg/m3

Numbers after ± are expanded uncertainties.
